This passage reports inhibition results from PubChem BioAssay AID488862 (Broad Institute, 2010).

The list shows a part of the results, in another mix than the full data. Some salts or complexes appear as unconnected parts, following the source record. Activity calls are given as the source filed them. Cut-off read from the data, not from the text of the source: active = inhibition above about 52%; inactive = the rest.

The assay in a line: suppresses PrP 5' UTR mRNA reporter expression (AID 488862). Note: 0 = median of the neutral control wells. The conditions noted are these: cell-based PrP 5' UTR mRNA reporter, plate reader; stronger effect = higher value; concentration not given here.
Turning to `CCOP(=O)(Nc1ccc(C)cn1)OCC`, the inhibition was inactive: -31.6%.

With `Cc1ccccc1NP(C)(=O)Nc1ccccc1C`, the inhibition was inactive: -23.7%.

For `CP(=O)(Nc1ccc2c(c1)OCCO2)Oc1ccccc1` (stereo unspecified), the inhibition was inactive: -17.1%.

Regarding `c1nnnn1CCn1cnnn1`, the inhibition was inactive: -14.2%.

Take `CCOP(C)(=S)SCC(=O)NC(C)(CC)C(=O)O` (stereo unspecified): the inhibition is inactive: -14%.

In the case of `O=P(Nc1nccs1)(c1ccccc1)c1ccccc1`, the inhibition is inactive: -3.99%.

As for `CC(C)C(=O)NC(Sc1ccccc1)C(Cl)(Cl)Cl` (stereo unspecified), the inhibition was inactive: -8.49%.

Consider `CP(=O)(Nc1ccc(SC(F)(F)F)cc1)Oc1ccc(F)cc1` (stereo unspecified), for which the inhibition is inactive: -6.88%.

Turning to `O=C(OC1CN2CCC1CC2)c1cccc(Cl)c1` (stereo unspecified), the inhibition was inactive: -62.3%.

As to `Cc1c(C(c2ccc3c(c2)OCO3)c2c(C)n(C)n(-c3ccccc3)c2=O)c(=O)n(-c2ccccc2)n1C.O=[N+]([O-])c1cc([N+](=O)[O-])c(O)c([N+](=O)[O-])c1`, the inhibition is inactive: -5.37%.

Turning to `Nc1ccc([As](=O)(O)c2ccc([N+](=O)[O-])cc2)cc1`, the inhibition was inactive: -11.6%.

In the case of `C(Cc1nn[nH]n1)Cc1nn[nH]n1`, the inhibition is inactive: -2.17%.

Turning to `O=[As](O)(c1ccccc1)c1ccc(O)cc1`, the inhibition was inactive: -5.47%.

On to `O=[N+]([O-])c1cc([N+](=O)[O-])c(NCC2CCS(=O)(=O)C2)c([N+](=O)[O-])c1` (stereo unspecified), for which the inhibition is inactive: -30.3%.

Regarding `Cc1cc(-c2cccc3ccccc23)c(C)cn1.O=[N+]([O-])c1cc([N+](=O)[O-])c(O)c([N+](=O)[O-])c1`, the inhibition is inactive: -15.6%.

Take `O=[N+]([O-])c1ncn(CCn2cnc([N+](=O)[O-])n2)n1`: the inhibition is inactive: -3.73%.

On to `CC(=O)NC(SC(=S)N(C)C)C(Cl)(Cl)Cl` (stereo unspecified), for which the inhibition is inactive: 37.8%.

On to `O=[N+]([O-])c1ccc(OP2(=O)COCCO2)cc1` (stereo unspecified), for which the inhibition is inactive: -7.44%.

On to `O=[N+]([O-])c1ccc(O)c(/C=N/Nc2ccc([N+](=O)[O-])cc2[N+](=O)[O-])c1`, for which the inhibition was inactive: 9.21%.

As to `COc1ccc(NP(C)(=O)Oc2ccccc2OC)cc1` (stereo unspecified), the inhibition was inactive: -26.7%.

On to `O=P(Nc1nc2ccccc2s1)(c1ccccc1)c1ccccc1`, for which the inhibition was inactive: -36.3%.

As for `CN(C)CCOC(=O)C(O)(c1ccccc1)C1CCCCC1` (stereo unspecified), the inhibition is inactive: -7.38%.

Turning to `C[C@H]1OP(=O)(Oc2ccccc2)[C@H](O)[C@H](O)[C@H]1N=[N+]=[N-]` (stereo partly specified), the inhibition is inactive: -31%.

As to `CN(C)C1(CNC(=O)c2ccc(Cl)c(S(N)(=O)=O)c2)CCCCC1`, the inhibition was inactive: -20.3%.

Consider `O=P(Nc1ccccn1)(c1ccc(Br)cc1)c1ccc(Br)cc1`, for which the inhibition was inactive: -8.38%.

As for `COc1ccc(OP(C)(=O)Nc2cccc(Br)c2)cc1` (stereo unspecified), the inhibition was inactive: -19.4%.

Consider `COc1ccc(N)c([N+](=O)[O-])c1[N+](=O)[O-]`, for which the inhibition is inactive: -16.5%.

Consider `Cc1ccccc1OP(=O)(Nc1ccccn1)Oc1ccccc1C`, for which the inhibition is inactive: -29.5%.

With `CC(NC(=O)COC(=O)C(O)(c1ccccc1)c1ccccc1)c1ccccc1` (stereo unspecified), the inhibition is inactive: -8.97%.

As for `CN(C)C(=O)Oc1noc2ccccc12`, the inhibition was inactive: -7.66%.

On to `O=c1c2cc([N+](=O)[O-])ccc2[nH]c2c([N+](=O)[O-])cc([N+](=O)[O-])cc12`, for which the inhibition was inactive: -1.01%.

Take `CCCCCOc1ccc(NP(C)(=O)Oc2ccc(Cl)cc2Cl)cc1` (stereo unspecified): the inhibition was inactive: -43.9%.

With `O=[N+]([O-])c1cc([N+](=O)[O-])c(OC2CCCCC2O)c([N+](=O)[O-])c1` (stereo unspecified), the inhibition was inactive: -15.5%.

Consider `CP(=O)(Nc1ccccc1)Oc1ccc(F)cc1` (stereo unspecified), for which the inhibition was inactive: -5.2%.

`O=C(OC1CN2CCC1CC2)c1ccccc1` (stereo unspecified): the inhibition was inactive: -43.2%.

Regarding `CCC(=O)N1C2C3N(C(=O)CC)C1C1N(C(=O)CC)C(C(N1C(=O)CC)N3C(=O)CC)N2C(=O)CC`, the inhibition was inactive: 5.34%.

In the case of `CCN(CC)CCCOC(=O)C(O)(c1ccccc1)C1CCCCC1` (stereo unspecified), the inhibition is inactive: -13.7%.

For the molecule `COC(=O)c1cc2c(s1)N=C(c1ccccc1)N(C)P2(=O)N1CCOCC1` (stereo unspecified), the inhibition was inactive: -14.4%.

For the molecule `Cc1c([N+](=O)[O-])cc([N+](=O)[O-])c(Br)c1[N+](=O)[O-]`, the inhibition was inactive: -9.31%.

Consider `Cc1ccc(OP(=O)(Nc2ccccn2)Oc2ccc(C)cc2)cc1`, for which the inhibition is inactive: -22.4%.

With `CC(=O)NC(SC(=S)N(CC(C)C)CC(C)C)C(Cl)(Cl)Cl` (stereo unspecified), the inhibition was inactive: 7.96%.

`COc1ccc(OP(C)(=O)Nc2ccc(SC(F)(F)F)cc2)cc1` (stereo unspecified): the inhibition is inactive: -22.8%.

For `O=P1(N(CCCl)CCCl)OCCC2CCCCN21` (stereo unspecified), the inhibition is inactive: -10.1%.

Turning to `CCOC(=O)c1ccc(NP(C)(=O)Oc2ccc(F)cc2)cc1` (stereo unspecified), the inhibition is inactive: -24.3%.

`c1ccc(-c2nn[nH]n2)c(-c2nn[nH]n2)c1`: the inhibition is inactive: -12.4%.

`Cc1ccc(NP(=O)(Oc2cccc(C)c2)Oc2cccc(C)c2)nc1`: the inhibition is inactive: -9.38%.

In the case of `O=C(NC1CCS(=O)(=O)C1)NP(=S)(Oc1ccccc1)Oc1ccccc1` (stereo unspecified), the inhibition is inactive: -49.5%.

As to `CCNC(=S)/N=C(\N)N[N+](=O)[O-]`, the inhibition was inactive: -24%.

On to `COc1ccc2c(c1O)-c1c(O)c(OC)cc3c1[C@H](C2)[N+](C)(C)CC3.O=[N+]([O-])c1cc([N+](=O)[O-])c([O-])c([N+](=O)[O-])c1[O-]`, for which the inhibition was inactive: -23.4%.

For `CC(=O)Nc1ccc([As](=O)(O)O)c(O)c1`, the inhibition was inactive: -27.5%.

With `CC(=O)Nc1ccc(Oc2c([N+](=O)[O-])cc([N+](=O)[O-])cc2[N+](=O)[O-])cc1`, the inhibition is inactive: -23%.

Consider `O=C(OCCN1CCN(CCOCc2ccccc2)CC1)C(O)(c1ccccc1)c1ccccc1`, for which the inhibition is inactive: -1.17%.

Take `Cc1ccccc1CN(C)C(=O)COC(=O)C(O)(c1ccccc1)c1ccccc1`: the inhibition was inactive: -16%.

Consider `C[C@@H]1C=CCP(=O)(Oc2ccccc2)O1` (stereo partly specified), for which the inhibition is inactive: -24.5%.

Turning to `C[C@H]1OP(=O)(Oc2ccccc2)C[C@@H]2O[C@@H]21` (stereo partly specified), the inhibition is inactive: -9.43%.

Regarding `N#C/C(=C\c1ccc(N(CCBr)CCBr)cc1)C(N)=O`, the inhibition is inactive: 12.5%.

Consider `CC(=O)c1ccc(N2CC2c2ccncc2)cc1` (stereo unspecified), for which the inhibition is inactive: -17.7%.

For the molecule `O=C(OC1CN2CCC1CC2)c1ccc([N+](=O)[O-])cc1` (stereo unspecified), the inhibition was inactive: -2.19%.

On to `COC(=O)C1(C)COP(=O)(NCc2ccccc2)OC1` (stereo unspecified), for which the inhibition is inactive: -10.9%.

In the case of `CC(C)(C)C(=O)NC(Sc1ccccc1)C(Cl)(Cl)Cl` (stereo unspecified), the inhibition was inactive: -23.8%.

Regarding `CC(C)c1ccc(OP(C)(=O)Nc2ccc(SC(F)(F)F)cc2)cc1` (stereo unspecified), the inhibition was inactive: -17.2%.

Regarding `CCc1cc(O)c([N+](=O)[O-])c(C)c1[N+](=O)[O-]`, the inhibition is inactive: -23.4%.

As to `CP(=O)(Nc1ccccc1F)Oc1ccccc1` (stereo unspecified), the inhibition was inactive: -7.89%.

Consider `O=P1(Nc2nc3ccc(Cl)cc3s2)COc2ccccc2O1` (stereo unspecified), for which the inhibition is inactive: -22.7%.

Take `CCOc1ccc(C2=NCC(CBr)S2)cc1` (stereo unspecified): the inhibition was inactive: -11.9%.

As to `CCc1ccc(OP(C)(=O)O)cc1`, the inhibition was inactive: -6.16%.

Turning to `CP(=O)(Nc1ccccn1)Oc1ccccc1` (stereo unspecified), the inhibition was inactive: -10.4%.

For `COc1ccccc1OP(C)(=O)Nc1ccc(C)cc1C` (stereo unspecified), the inhibition is inactive: -19.1%.

On to `Oc1ccccc1CNc1ccccn1`, for which the inhibition is inactive: -6.99%.

Regarding `O=C(NC(Sc1ccncn1)C(Cl)(Cl)Cl)c1ccccc1` (stereo unspecified), the inhibition is inactive: 1.98%.

As to `O=[N+]([O-])c1cc([N+](=O)[O-])c(Nc2ccccn2)c([N+](=O)[O-])c1`, the inhibition is inactive: -14%.

As to `CC(C)CC(=O)NC(Sc1ccc(Cl)cc1)C(Cl)(Cl)Cl` (stereo unspecified), the inhibition is inactive: -17%.

As for `Nc1cc(N)c2nonc2c1[N+](=O)[O-]`, the inhibition was inactive: -17.9%.

Take `Cc1c(NP(C)(=O)Oc2ccc(C(C)C)cc2)c(=O)n(-c2ccccc2)n1C` (stereo unspecified): the inhibition is inactive: -14.8%.

`CN(C)CCOC(=O)C(O)(c1ccccc1)C1CCCC1` (stereo unspecified): the inhibition is inactive: -22.8%.

As for `Clc1ccc(Cl)c(NC2=NCC(CBr)S2)c1` (stereo unspecified), the inhibition is inactive: -15.5%.

Take `CN1CCCC(OC(=O)C(c2ccccc2)c2ccccc2)C1` (stereo unspecified): the inhibition is inactive: -4.98%.

Regarding `COc1ccc(OP(C)(=O)Nc2ccccn2)cc1` (stereo unspecified), the inhibition was inactive: -5.59%.

Turning to `COc1ccccc1OP(=O)(Nc1ccc(C)cn1)Oc1ccccc1OC`, the inhibition was inactive: -17.7%.

Consider `COc1ccccc1OP(C)(=O)Nc1ccc(Br)cc1` (stereo unspecified), for which the inhibition is inactive: -17.8%.

Regarding `CN(C(=O)Cc1ccc(Cl)c(Cl)c1)[C@H]1CCCC[C@H]1N1CCCC1`, the inhibition was inactive: -7.49%.

`Cc1ccc(N/C(=N/P(=O)(N2CCOCC2)N2CCOCC2)N2CCOCC2)cc1`: the inhibition is inactive: -14.2%.

On to `NC(=O)c1cc([N+](=O)[O-])cc([N+](=O)[O-])c1N`, for which the inhibition is inactive: -8.68%.

As to `Nc1cccc2ccc([As](=O)(O)O)cc12`, the inhibition is inactive: -6.3%.

Consider `CP(=O)(OCCOc1ccccc1)OCCOc1ccccc1`, for which the inhibition is inactive: -39.1%.

As for `CCCCCCCCCCCCCCCC1C[N+](C)(C)CCOP(C)(=O)O1` (stereo unspecified), the inhibition was inactive: -9.29%.

With `CP(=O)(Nc1ccc(Cl)cc1Cl)Oc1ccccc1` (stereo unspecified), the inhibition was inactive: -31.8%.

Consider `CCN(N=Nc1nonc1N)c1nonc1N`, for which the inhibition was inactive: -5.83%.

As for `COc1ccc(OP(C)(=O)Nc2ccccc2Br)cc1` (stereo unspecified), the inhibition was inactive: -11.2%.

`CCOP(=O)(Nc1ccccc1)OCC`: the inhibition is inactive: -20.2%.

For `Cc1cc(SC(NC(=O)c2ccc(F)cc2)C(Cl)(Cl)Cl)ncn1` (stereo unspecified), the inhibition was inactive: -4.13%.

In the case of `Cc1ccc(NP(=O)(Oc2ccccc2F)Oc2ccccc2F)nc1`, the inhibition was inactive: -17%.

As for `COc1ccccc1OP(C)(=O)Nc1ccc(C)c(C)c1` (stereo unspecified), the inhibition was inactive: -7.43%.

Regarding `O=C1C(O)=C([N+](=O)[O-])C(=O)C(O)=C1[N+](=O)[O-]`, the inhibition is inactive: -17%.

As to `Cc1cc(C)cc(OP(C)(=O)Nc2cccc(C(F)(F)F)c2)c1` (stereo unspecified), the inhibition was inactive: -25.7%.

Consider `O=P(Nc1nc2ccc(Cl)cc2s1)(c1ccccc1)c1ccccc1`, for which the inhibition is inactive: 1.31%.
